Assay: general procedure: Boc solid-phase peptide synthesis; MBHA; dicyclohexylcarbodiimide
Details: whole synthesis, 215 nm

Ac-RRWWCRC-NH2 (cysteine pairing not given here)
final HPLC purity: greater than 90% pure

From patent US5441936A (priority 1993, dated 1995)
